Anti-infective test results gathered from many reports (values: NIAID ChemDB through PubChem).

All rows: tests in culture; species: HIV-1; read by: cytopathic effect / XTT; measure: EC50

Lines come from different laboratories, so protocols vary. Blank or dashed fields: not listed here. ECn is the concentration giving n% inhibition of infection, replication or growth.

compound,changes,strain or isolate,cell line,result
Cc1cc(C(=O)O)ccc1N=Nc1c(S(=O)(=O)O)cc2cc(NC(=O)Nc3ccc4c(O)c(N=Nc5ccc(C(=O)O)cc5C)c(S(=O)(=O)O)cc4c3)ccc2c1O,-,RF,CEM + CEM-SS,2.5 µM
Cc1cc(C)nc(SC(F)(F)c2nc3ccccc3o2)n1,-,RF,CEM + CEM-SS,2.16 µM
C=C1[C@H](CO)[C@@H](O)C[C@@H]1n1cnc2c(=O)[nH]c(N)nc21,-,-,MT-2,9 µM
COc1ccc2c(c1)OC[C@@H]1c3cc(O)c4c(OC)cccc4c3O[C@H]21,-,RF,CEM + CEM-SS,>15 µM
O=C(C1=NS(=O)(=O)c2ccc(Cl)cc2S1)c1ccc(Cl)cc1,-,-,CEM,72.7 µM
CC(CNC(=S)Nc1nccs1)c1ccccc1,-,IIIB,MT-4,>10 µM
CCN(CC)C(=S)SSC(=S)N(CC)CC,-,RF,CEM + CEM-SS,>3.9 µM
Cc1cc2c(cc1Cl)SC(C(=O)c1ccc3ccccc3c1)=NS2(=O)=O,-,-,CEM,>200 µM
CC=CCOc1cc(NC(=S)c2ccoc2C)ccc1OC,RT-A98G,NL4-3,CEM + CEM-SS,0.03 µM
c1ccc(C2SCc3nc4ncccc4n32)cc1,-,RF,CEM,>384 µM
C=CCO/N=C/c1cc(NC(=S)c2ccoc2C)ccc1Cl,RT-L74V,NL4-3,CEM + CEM-SS,0.01 µM
COc1ccc2c(c1)OC[C@@H]1c3cc(OC)c(OCc4ccccc4)cc3O[C@H]21,-,RF,CEM + CEM-SS,5.97 µM
Nc1ncnc2c1ncn2[C@H]1C=C[C@@H](CO)C1,-,-,MT-2,2.3 µg/mL
C/C(=C(/CCO)SS/C(CCO)=C(\C)N(C=O)Cc1cnc(C)nc1N)N(C=O)Cc1cnc(C)nc1N,-,RF,CEM + CEM-SS,>535 µM
[N-]=[N+]=N[C@H]1[C@@H](OCP(=O)(O)O)CO[C@H]1n1cnc2c(N)ncnc21,-,IIIB,MT-2,>200 µM
Cc1ccc2nc(/C(C#N)=C/c3ccc(-c4ccc(O)c(C(=O)O)c4)o3)[nH]c2c1,-,-,CEM + CEM-SS,59 µM
Cc1cc(S(=O)(=O)Nc2nc(N)n(-c3ccccn3)n2)c(S)cc1Cl,-,RF,CEM + CEM-SS,100 µM
N#CC(C(=S)NCc1ccc(Cl)cc1)c1nc2ccccc2o1,-,-,CEM,36.9 µM
Nc1nc(N)c2ncn([C@H]3CO[C@@H](CO)O3)c2n1,RT-K65R,-,MT-2,42 µM
COc1ccc2c(c1)OC[C@@H]1c3cc(O)c(OC)cc3O[C@H]21,-,RF,CEM + CEM-SS,>1.75 µM
Nc1nc(Cl)c2ncn([C@H]3C=C[C@@H](CO)C3)c2n1,-,-,MT-2,0.41 µg/mL
Cc1cc2c(cc1Cl)SC(C(=O)c1ccccc1)=NS2(=O)=O,-,-,CEM,80.9 µM
COc1ccc2c(c1)N(S(=O)(=O)c1ccc(C)cc1)C[C@@H]1c3cc(O)c(OCc4ccccc4)cc3O[C@H]21,-,RF,CEM + CEM-SS,>80 µM
Cc1ccnc(SCc2nc3ccccc3o2)n1,-,RF,CEM + CEM-SS,53.3 µM
N#C/C(=C1\SC(=O)CN1c1ccccc1)c1nc2ccccc2o1,-,-,CEM,>200 µM
CCCCCCCCCCCCCCCC(=O)Nc1ccn([C@H]2CC[C@@H](COP(=O)(O)O[C@H]3C[C@H](n4cc(C)c(=O)[nH]c4=O)O[C@@H]3CO)O2)c(=O)n1,Oxathiin carboxanilide-resistant RT L100I,OC-resistant RT L100I,CEM + CEM-SS,0.1471 µM
COC[C@H]1c2cc(O)c(OCc3ccccc3)cc2O[C@@H]1c1ccc(OC)cc1,-,RF,CEM + CEM-SS,>18.7 µM
O=c1cc(-c2cccc3c2Sc2ccccc2S3)oc(N2CCOCC2)c1,-,RF,C8166,3.8 µM
Cc1cc2c(cc1Cl)SC(C(=O)c1ccc(Cl)c(Cl)c1)=NS2(=O)=O,-,-,CEM,>200 µM
CC(C)=CCN1CC(C)Cn2c(=S)[nH]c3cccc1c32,-,IIIB,CEM(SS) + CEM-SS,0.498 µM
Cc1cc2c(cc1Cl)SC(C(=O)c1ccc(Cl)cc1)=NS2(=O)=O,-,-,CEM,>159 µM
Nc1nc2c(ncn2[C@H]2CO[C@@H](CO)O2)c(=O)[nH]1,RT-A98S F116Y Q151M T215Y,-,MT-2,17.5 µM
CC(C)=CCOc1cc(NC(=S)c2ccoc2C)ccc1Cl,RT-K103N,UC10/costatolide-resistant (RT K103N),CEM + CEM-SS,0.9 µM
Brc1ccccc1C1SCc2nc3ncccc3n21,-,RF,CEM,>2.48 µM
CCC(=O)c1ccc(F)c([C@@H]2C[C@@H]2NC(=O)Nc2ccc(Cl)cn2)c1O,RT-L100I,IIIB,MT-4,0.21 µM
O=C(CCCN1C(=O)/C(=C/c2cccs2)SC1=S)Nc1ccc(O)c(C(=O)O)c1,-,-,CEM + CEM-SS,>63 µM
Fc1cccc(F)c1C1SCc2nc3ncccc3n21,-,RF,CEM,29 µM
CCC(=O)c1ccc(F)c([C@H]2C[C@H]2NC(=O)Nc2ccc(C#N)cn2)c1O,RT-L100I,IIIB,MT-4,0.064 µM
COc1ccccc1C(=O)N(Cc1ccccc1)c1ccc(Cl)c(C(=O)OC(C)C)c1,-,RF,CEM + CEM-SS,>100 µM
CC(C)CCC[C@@H](C)[C@H]1CC[C@H]2[C@@H]3CC[C@H]4C[C@@H](CCC=C(c5cc(Cl)c(OCc6ccc(C(=O)O)cc6)c(C(=O)O)c5)c5cc(Cl)c(OCc6ccc(C(=O)O)cc6)c(C(=O)O)c5)CC[C@]4(C)[C@H]3CC[C@]12C,-,RF,CEM + CEM-SS,0.8 µM
Cc1cc(Cl)cc2c1S(=O)(=O)N=C(C(=O)c1ccc(Cl)c(Cl)c1)S2,-,-,CEM,>200 µM
N#CC(C(=S)NCc1ccccc1)c1nc2ccccc2o1,-,-,CEM,32.9 µM
COc1cc(-c2ccc(N=Nc3ccc4c(S(=O)(=O)O)cc(S(=O)(=O)O)c(N)c4c3O)c(OC)c2)ccc1N=Nc1ccc2c(S(=O)(=O)O)cc(S(=O)(=O)O)c(N)c2c1O,-,SKI,CEM + CEM-SS,1.6 µM
CC(C)=CCOc1cc(NC(=S)c2ccsc2C)ccc1Cl,RT-K103N,UC10/costatolide-resistant (RT K103N),CEM + CEM-SS,1 µM
Cc1occc1C(=S)Nc1ccc(Cl)c(C(=O)OC(C)C)c1,RT-D67N K70R T215Y K219Q,4xAZT(RT-D67N K70R T215Y K219Q),CEM + CEM-SS,0.03 µM
Clc1ccccc1C1SCc2nc3ncccc3n21,-,RF,CEM,>9.04 µM

A second listing of 6 rows from above:

compound	changes	strain or isolate	cell line	result
COc1ccc2c(c1)OC[C@@H]1c3cc(OC)c(OCc4ccccc4)cc3O[C@H]21	-	RF	CEM + CEM-SS	5.97 µM
[N-]=[N+]=N[C@H]1[C@@H](OCP(=O)(O)O)CO[C@H]1n1cnc2c(N)ncnc21	-	IIIB	MT-2	>200 µM
O=c1cc(-c2cccc3c2Sc2ccccc2S3)oc(N2CCOCC2)c1	-	RF	C8166	3.8 µM
O=C(CCCN1C(=O)/C(=C/c2cccs2)SC1=S)Nc1ccc(O)c(C(=O)O)c1	-	-	CEM + CEM-SS	>63 µM
Nc1ncnc2c1ncn2[C@H]1C=C[C@@H](CO)C1	-	-	MT-2	2.3 µg/mL
Cc1ccc2nc(/C(C#N)=C/c3ccc(-c4ccc(O)c(C(=O)O)c4)o3)[nH]c2c1	-	-	CEM + CEM-SS	59 µM